Measurements reported in PubChem BioAssay AID1224833 (University of Georgia, 2016)

Assay: 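Host factors restraining rotavirus as candidate antiviral genes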 (primary screen)
Cells: monkey MA104 kidney cells
Knock-down reagent: siRNA pool against human genes, 50 nM
Duration: 48 h knock-down before infection; read 24 h after infection
Treatment: infection with rotavirus strain RV3 two days after transfection; infectious dose for this stage not given
Measurement: 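z-score of rotavirus antigen signal per well, from a fluorescent immunoassay, relative to non-targeting control wells on the same plate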
Reading the numbers: z-score vs non-targeting control: higher = more rotavirus replication than with non-targeting control
Rule for the call: In these data the active calls have z-score vs non-targeting control at about -1 or lower, or at about 1 or higher
Meaning of the calls: active = z-score beyond 1 either way; inactive = z-score within 1 of zero
Here is a random part of about 12,000 reagents. In the full data, about 5,600 (46%) were called active. 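Active calls cover z-scores past 1 in both directions, so they include lowered as well as raised rotavirus replication.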 A number with no mark means an inactive call.

Against SIGLEC5 (sialic acid binding Ig like lectin 5) the deposit lists z-score vs non-targeting control -0.552.
ANK1 (ankyrin 1) gave z-score vs non-targeting control 0.798.
After knock-down of HAPLN1 (hyaluronan and proteoglycan link protein 1), the record shows z-score vs non-targeting control -1.17 (active).
Depletion of RGS12 (regulator of G protein signaling 12) gave: z-score vs non-targeting control 1.75 (active).
Depletion of LANCL2 (LanC like glutathione S-transferase 2) came out at: z-score vs non-targeting control -1.61 (active).
GIMAP6 (GTPase, IMAP family member 6) gave z-score vs non-targeting control -0.403.
ATP1A2 (ATPase Na+/K+ transporting subunit alpha 2) gave z-score vs non-targeting control -1.7 (active).
C17orf75 (chromosome 17 open reading frame 75) gave z-score vs non-targeting control -1.48 (active).
After knock-down of RPRML (reprimo like) the results were z-score vs non-targeting control -1.05 (active).
MMD (monocyte to macrophage differentiation associated) showed z-score vs non-targeting control -1.98 (active).
After knock-down of RREB1 (ras responsive element binding protein 1), the screen gave z-score vs non-targeting control -0.739.
GRHPR (glyoxylate and hydroxypyruvate reductase) showed z-score vs non-targeting control 1.46 (active).
DEFB106A (defensin beta 106A) gave z-score vs non-targeting control 0.916.
Knock-down of TTLL3 (tubulin tyrosine ligase like 3) resulted in: z-score vs non-targeting control -0.0567.
With knock-down of TTC7B (tetratricopeptide repeat domain 7B), the record shows z-score vs non-targeting control -1.9 (active).
For NMI (N-myc and STAT interactor), the entry reads z-score vs non-targeting control -1.34 (active).
Depletion of SPRY1 (sprouty RTK signaling antagonist 1) resulted in: z-score vs non-targeting control -0.237.
After knock-down of PDGFD (platelet derived growth factor D), the record shows z-score vs non-targeting control 0.278.
Depletion of SH3PXD2B (SH3 and PX domains 2B) gave: z-score vs non-targeting control 1.23 (active).
SEMA4C (semaphorin 4C) scored z-score vs non-targeting control -1.09 (active).
Against DQX1 (DEAQ-box RNA dependent ATPase 1) the deposit lists z-score vs non-targeting control -0.263.
For SCAND3 (SCAN domain containing 3) the deposit lists z-score vs non-targeting control 0.573.
With knock-down of GGA2, the record shows z-score vs non-targeting control -0.694.
Depletion of PSMD11 (proteasome 26S subunit, non-ATPase 11) gave: z-score vs non-targeting control -1.24 (active).
For VTCN1 (V-set domain containing T cell activation inhibitor 1), the entry reads z-score vs non-targeting control -0.386.
ITGA2B (integrin subunit alpha 2b) scored z-score vs non-targeting control 1.54 (active).
Depletion of SNAP29 (synaptosome associated protein 29) resulted in: z-score vs non-targeting control 0.661.
Against MRC2 (mannose receptor C-type 2), the entry reads z-score vs non-targeting control -0.837.
Depletion of NOTCH3 (notch receptor 3) resulted in: z-score vs non-targeting control -1.13 (active).
For PCDHGA6 (protocadherin gamma subfamily A, 6) the deposit lists z-score vs non-targeting control -1.07 (active).
NHLH2 (nescient helix-loop-helix 2) scored z-score vs non-targeting control 0.608.
Depletion of DPRX (divergent-paired related homeobox) came out at: z-score vs non-targeting control -1.97 (active).
SPIRE2 (spire type actin nucleation factor 2) showed z-score vs non-targeting control -0.673.
Silencing of CRISP3 (cysteine rich secretory protein 3) came out at: z-score vs non-targeting control 2.98 (active).
CIAO1 (cytosolic iron-sulfur assembly component 1) gave z-score vs non-targeting control 1.73 (active).
After knock-down of TBC1D28 (TBC1 domain family member 28), the screen gave z-score vs non-targeting control -1.02 (active).
ELSPBP1 (epididymal sperm binding protein 1) gave z-score vs non-targeting control 0.59.
GJD2 (gap junction protein delta 2) gave z-score vs non-targeting control 0.492.
ALX3 (ALX homeobox 3) gave z-score vs non-targeting control -0.791.
After knock-down of SNX9 (sorting nexin 9), the record shows z-score vs non-targeting control 1.41 (active).
After knock-down of GOLM2 (golgi membrane protein 2) the results were z-score vs non-targeting control -2.88 (active).
After knock-down of TNNT1 (troponin T1, slow skeletal type) the results were z-score vs non-targeting control 0.217.
TONSL (tonsoku like, DNA repair protein) scored z-score vs non-targeting control 0.805.
ELAC2 (elaC ribonuclease Z 2) scored z-score vs non-targeting control -1.15 (active).
For PYCARD (PYD and CARD domain containing), the entry reads z-score vs non-targeting control -1.16 (active).
After knock-down of PCDHB9 (protocadherin beta 9) the results were z-score vs non-targeting control 0.17.
OCLM (retired record) scored z-score vs non-targeting control 1.65 (active).

3 entries already listed, sorted by “z-score vs non-targeting control”, low to high.
TTC7B (tetratricopeptide repeat domain 7B) — z-score vs non-targeting control: -1.9 (active)
NMI (N-myc and STAT interactor) — z-score vs non-targeting control: -1.34 (active)
SPRY1 (sprouty RTK signaling antagonist 1) — z-score vs non-targeting control: -0.237
